Measured values from several laboratories, pooled; numbers as filed in NIAID ChemDB.

All rows: growth or infection tests; species: HIV-1; endpoint: EC50

ECn is the concentration giving n% inhibition of infection, replication or growth. An empty or dashed field is not shown. Rows are shuffled and stem from different studies.

SMILES	method	strain or isolate	mutations	cells	result
Fc1cccc(F)c1C1SCc2nc3ccccc3n21	cytopathic effect / XTT	IIIB	-	CEM + CEM-SS	2.33 µM
Cc1ccnc2c1NC(=O)c1cccnc1N2C1CC1	β-galactosidase	NNRTI-resistant (RT Y188C)	RT-Y188C	MAGI	2.3 µM
Cc1cn([C@H]2C[C@H](N=[N+]=[N-])[C@@H](CO)O2)c(=O)[nH]c1=O	cytopathic effect / trypan blue	NMR50	-	MT-4	0.004 µM
CN[C@H]1CO[C@@H]2OCC[C@H](OC(=O)N[C@@H](Cc3cccc(OC)c3)[C@H](O)CN(CC(C)C)S(=O)(=O)c3ccc4nc(NC(C)C)sc4c3)[C@@H]21	p24 / luminescence	NL4-3	-	MT-4	0.021 µM
CC(C)C[C@H](NC(=O)[C@H](Cc1ccccc1)NC(=O)CNC(=O)CNC(=O)[C@@H](N)Cc1ccc(O)cc1)C(=O)NC[C@H]1OC(O)[C@H](O)[C@@H](O)[C@@H]1O	syncytia / RT activity	-	-	PBL	>140 µM
Nc1ccn([C@H]2CC[C@@H](CO)O2)c(=O)n1	plaque count	HXB2	RT-T215Y	CD4+HELA + HeLa	0.1 µM
CC(C)CN(C[C@@H](O)[C@H](Cc1ccccc1)NC(=O)O[C@H]1CCOC1)S(=O)(=O)c1ccc(N)cc1	p24 / luminescence	NL4-3	L23I E34Q K43I M46I I50L G51A L63P A71V V82A T91A	MT-4	0.263 µM
CCCN(C)C(=O)Oc1nsnc1-c1c(Cl)ccc(N)c1Cl	MTT	IIIB	RT-V103A	MAGI	0.043 µM
CC(C)OC(=O)OCOP(=O)(CO[C@H](C)Cn1cnc2c(N)ncnc21)OCOC(=O)OC(C)C	luciferase / reporter gene	NL4-3	-	TZM-bl	0.00119 µM
CCCCCCCCCCCCSCC(COP(=O)([O-])OCC[N+](C)(C)C)OCCCCCCCCO	plaque count	IIIB	-	CEM + CEM-SS	0.61 µM
CCN[C@H]1CO[C@@H]2OCC[C@H](OC(=O)N[C@@H](Cc3ccccc3)[C@H](O)CN(CC(C)C)S(=O)(=O)c3ccc4nc(NC5CC5)sc4c3)[C@@H]21	p24 / luminescence	NL4-3	L10F M46I I54V V82A	MT-4	0.0039 µM
CC(C)(CCCN)CN(C[C@@H](O)[C@H](Cc1ccccc1)NC(=O)O[C@H]1CO[C@H]2OCC[C@H]21)S(=O)(=O)c1ccc2c(c1)OCO2	cytopathic effect / propidium iodide	Multi-PI-resistant EP13	PR-M46I L63P A71V V82F/L I84V	MT-4	0.54 µM
Nc1nc(=O)n([C@@H]2CS[C@H](CO)O2)cc1F	p24 / ELISA	-	K65R	Primary T lymphocytes	0.5 µM
Cc1cc(C#Cc2ccccn2)cc(C)c1Oc1ccnc(Nc2ccc(C#N)cc2)n1	MTT	IIIB	RES056	MT-4	>2.068 µM
CC(=O)O[C@@H]1O[C@H](COC(=O)[C@H](CC(C)C)NC(=O)[C@H](Cc2ccccc2)NC(=O)CNC(=O)CNC(=O)[C@@H](N)Cc2ccc(O)cc2)[C@@H](OC(C)=O)[C@H](OC(C)=O)[C@H]1OC(C)=O	syncytia / RT activity	-	-	PBL	>100 µM
Cc1ccnc2c1NC(=O)c1cccnc1N2C1CC1	MTT	IIIB	Y188L	MT-4	4.416 µM
CCCCCCCCCCCCSCC(COP(=O)([O-])OCC[N+](C)(C)C)OCCCCCCCCC(=O)OCC(=O)OC[C@H]1O[C@@H](n2cc(C)c(=O)[nH]c2=O)C[C@@H]1N=[N+]=[N-]	plaque count	5346 WT	-	CEM-SS	0.02 µM
Cc1cn([C@H]2C[C@H](N=[N+]=[N-])[C@@H](CO)O2)c(=O)[nH]c1=O	p24 / ELISA	HXB2	-	MT-4	0.128 µM
CC(C)[C@H](NC(=O)c1ccc2ccccc2n1)C(=O)N[C@@H](Cc1ccccc1)[C@H](O)CN1CC[C@@H](OCc2ccncc2)C[C@H]1C(=O)NC(C)(C)C	p24 / ELISA / antigen	DDIR	-	C8166	0.0062 µM
CCCCCCCCCCCCCCC[C@@H](O)[C@@H](N)CO	luciferase / cell fusion	-	-	TZM-bl + HL2/3	>1.5 µM
Cc1cn([C@H]2C=C[C@@H](CO)O2)c(=O)[nH]c1=O	plaque count	HXB2	RT-V75T	CD4+HELA + HeLa	3.4 ± 0.37 µM
Cc1cn([C@H]2C[C@H](N=[N+]=[N-])[C@@H](CO)O2)c(=O)[nH]c1=O	plaque count	Clinical isolate H112-2 pre-AZT	-	CEM + CEM-SS	0.0005 µM
Cc1cc(C#N)cc(C)c1Oc1nc(Nc2ccc(C#N)cc2)nc(N)c1Br	recombinant virus assay	Clinical isolates	-	-	<0.1 µM
CN[C@H]1CO[C@@H]2OCC[C@H](OC(=O)N[C@@H](Cc3ccccc3)[C@H](O)CN(CC(C)C)S(=O)(=O)c3ccc4nc(NC5CC5)sc4c3)[C@@H]21	p24 / luminescence	NL4-3	L23I E34Q K43I M46I I50L G51A L63P A71V V82A T91A	MT-4	0.0031 µM
Cc1[nH]c(=O)c(F)cc1Cn1cnc(C(F)(F)C(F)F)c(Oc2cc(C(F)F)cc(C#N)c2C)c1=O	luminescence	-	-	CD4+ T-cell	>40.5 µM
Cc1ccccc1NC(=O)COc1ccc(Cl)cc1C(=O)c1cc(F)cc(F)c1	cytopathic effect / MTS	Nevirapine-resistant	RT-Y181C	MT-4	0.036 µM
C/C=C(\C)C(=O)O[C@@]12[C@H](O)[C@@H](C)[C@@]3(O)[C@@H](C=C(COC(=O)CCCCCCC/C=C\C/C=C\CCCCC)C[C@]4(O)C(=O)C(C)=C[C@@H]34)[C@@H]1C2(C)C	cytopathic effect / microscopy / visual reading	LAV-1	-	MT-4	<7.81 µg/mL
Cc1cn([C@H]2C[C@H](N=[N+]=[N-])[C@@H](CO)O2)c(=O)[nH]c1=O	plaque count / syncytia	LAV	-	U1(HIV-1 (LAV)) + U1	>1 µM
CN(CCO)CC(O)Cn1c2ccc(Cl)cc2c2cc(Cl)ccc21	luciferase / luminescence	NL4-3	-	MT-2	2.9 µM
CC(C)C[C@H](NC(=O)[C@H](Cc1ccccc1)NC(=O)CNC(=O)CNC(=O)[C@@H](N)Cc1ccc(O)cc1)C(=O)N[C@@H]1[C@@H](O)[C@H](O)[C@@H](CO)O[C@H]1O	syncytia / RT activity	-	-	PBL	>140 µM
CCN(CC)CCNc1cc(-c2cccs2)nc2ccccc12	luciferase / luminescence	NL4-3	-	MT-2	6.1 µM
CC(C)CN(C[C@@H](O)[C@H](Cc1ccccc1)NC(=O)O[C@H]1CCOC1)S(=O)(=O)c1ccc(N)cc1	cytopathic effect / propidium iodide	Multi-PI-resistant EP13	PR-M46I L63P A71V V82F/L I84V	MT-4	0.44 µM
CC(C)CN(C[C@@H](O)[C@H](Cc1ccccc1)NC(=O)[C@@H](NC(=O)CNCc1cccc(F)c1)C(C)(C)C)S(=O)(=O)c1cccc(N)c1	virus yield	THAI 9466	-	MT-2	<0.011 µM
Cc1cn([C@H]2C[C@H](N=[N+]=[N-])[C@@H](CO)O2)c(=O)[nH]c1=O	MTT	IIIB	L100I	MT-4	0.005 µM
CC(C)C[C@H](NC(=O)[C@H](Cc1ccccc1)NC(=O)CNC(=O)CNC(=O)[C@@H](N)Cc1ccc(O)cc1)C(=O)OC[C@H]1O[C@@H](OCc2ccccc2)[C@H](O)[C@@H](O)[C@@H]1O	syncytia / RT activity	-	-	PBL	>100 µM
CCCCCCCCCC(=O)O[C@@]12[C@H](OC(C)=O)[C@@H](C)[C@@]3(O)[C@@H](C=C(CO)C[C@]4(O)C(=O)C(C)=C[C@@H]34)[C@@H]1C2(C)C	cytopathic effect / microscopy / visual reading	LAV-1	-	MT-4	<0.0076 µg/mL
O=C(O)/C=C/c1ccc(O)c(O)c1	cytopathic effect / neutral red	LAI	-	MT-2	>250 µg/mL
Cc1cn([C@H]2C[C@H](N=[N+]=[N-])[C@@H](CO)O2)c(=O)[nH]c1=O	β-galactosidase / absorbance	NL4-3	-	MAGIC-5A	0.029 µM
Cc1cc(C#Cc2cccc(N)c2)cc(C)c1Oc1ccnc(NC2CCN(Cc3ccc(S(N)(=O)=O)cc3)CC2)n1	MTT	IIIB	F227L + V106A	MT-4	0.03 µM
COC(=O)NCCCCCC(C)(C)CN(C[C@@H](O)[C@H](Cc1ccccc1)NC(=O)O[C@H]1CO[C@H]2OCC[C@H]21)S(=O)(=O)c1ccc2c(c1)OCO2	cytopathic effect / propidium iodide	Multi-PI-resistant EP13	PR-M46I L63P A71V V82F/L I84V	MT-4	0.046 µM
Nc1c(S(=O)(=O)c2ccc(Cl)cc2)cc2c(=O)n3ccccc3nc2[n+]1C1CCCCC1	luciferase / luminescence	NL4-3	-	MT-2	10.2 µM
N#CC[C@H](C1CCCC1)n1cc(-c2ncnc3[nH]ccc23)cn1	p24 / ELISA	-	-	Macrophage	0.3 µM
Cc1ccc(-c2ccc3c(c2)C=C(C(=O)Nc2ccc(C[N+](C)(C)C4CCOCC4)cc2)CCC3)cc1	entry / luminescence	-	-	TZM-bl	3.65 µM
CCCCCCCCCCCC(=O)O[C@@]12[C@H](OC(=O)C(C)CC)[C@@H](C)[C@@]3(O)[C@@H](C=C(CO)C[C@]4(O)C(=O)C(C)=C[C@@H]34)[C@@H]1C2(C)C	cytopathic effect / microscopy / visual reading	LAV-1	-	MT-4	<15.76 µg/mL
CCC(=O)c1ccc(F)c([C@@H]2C[C@@H]2NC(=O)Nc2ccc(C#N)cn2)c1O	absorbance	92UG029	-	PBMC	0.0005 µM
Cc1cc(S(N)(=O)=O)ccc1NC(=O)COc1ccc(Cl)cc1C(=O)c1cccc(C#N)c1	cytopathic effect / MTS	IIIB WT	-	MT-4	0.001 µM
CC(C)CN(C[C@@H](O)[C@H](Cc1ccccc1)NC(=O)O[C@H]1CCOC1)S(=O)(=O)c1ccc(N)cc1	p24 / luminescence	ERS104pre	L63P	PBMC	0.031 µM
O=C(/C=C/c1ccc(O)c(O)c1)O[C@@H]1CC(O)(C(=O)O)C[C@@H](OC(=O)/C=C/c2ccc(O)c(O)c2)C1O	cytopathic effect / neutral red	LAI	-	MT-2	1 µg/mL
COc1ccc(S(=O)(=O)N(CC(C)C)C[C@@H](O)[C@H](Cc2ccccc2)NC(=O)O[C@H]2CCO[C@H]3OCC[C@H]32)cc1	p24 / luminescence	NL4-3	L10I I54V K20R L24I V32I L33F M36I M46I I54M L63P K70Q V82I I84V L89M	MT-4	>1 µM
Cc1ccc(/C=C/c2cc(C)c(Oc3ccnc(Nc4ccc(C#N)cc4)n3)c(C)c2)cc1	MTT	IIIB	Y181C	MT-4	0.671 µM
O=c1[nH]cnc2c1ncn2C1CC[C@@H](CO)O1	p24 / ELISA	-	4xAZT	Primary T lymphocytes	35.5 µM
Cc1cn([C@H]2C[C@H](F)[C@@H](CO)O2)c(=O)[nH]c1=O	antigen	GW908 AZT-resistant (RT V75I/F77L/F116Y/Q151M)	RT-V75I F77L F116Y Q151M	PBMC	0.0044 µM
Cc1cn([C@H]2C[C@H](N=[N+]=[N-])[C@@H](CO)O2)c(=O)[nH]c1=O	luciferase / luminescence	92UG024	-	TZM-bl	0.00818 µM
C/C=C(/C)C(=O)O[C@@H]1[C@@H](C)[C@@]2(O)C(C=C(CO)C[C@]3(O)C(=O)C(C)=CC23)C2C(C)(C)[C@@]21OC(=O)C(C)CC	cytopathic effect / microscopy / visual reading	LAV-1	-	MT-4	<31.3 µg/mL
Cc1cc(/C=C/c2ccccc2)cc(C)c1Oc1ccnc(Nc2ccc(C#N)cc2)n1	MTT	IIIB	F227L + V106A	MT-4	>18.5 µM